One molecule from paper PMC4885069, “Botulinum Neurotoxin Serotype A Recognizes Its Protein Receptor SV2 by a Different Mechanism than Botulinum Neurotoxin B Synaptotagmin” (Toxins, 2016) can be followed below.

Values joined by “and” are separate entries in the source; they are usually repeats but may differ in a detail not shown here. Equal values may be shown once.

This assay addresses HC-fragment of BoNT/A fused to a C-terminal Streptag (HCAS) (Clostridium botulinum, UniProt P0DPI1 871-1296).

B1: GST-hSV2C 455–579 F563L (domain or fragment)
chain: PDVIKPLQSDEYALLTRNVERDKYANFTINFTMENQIHTGMEYDNGRFIGVKFKSVTFKDSVFKSCTFEDVTSVNTYFKNCTFIDTVFDNTDFEPYKFIDSEFKNCSFLHNKTGCQITFDDDYSA
For the molecule B1, the Kd (commonly a measure of binding affinity in units of concentration) was 680 nM and 660 nM; the koff (as a rule, a measure of how fast the partners let go of each other) amounted to 0.13 s⁻¹; the kon – broadly, the second-order rate constant of association – turned out to be 190000 M⁻¹ s⁻¹.
